PubChem BioAssay AID2314 (National Center for Advancing Translational Sciences (NCATS), 2010)
This is a selection; strong and weak results do not stand in their true shares. Some salts or complexes appear as unconnected parts, following the source record. Calls of active or inactive are those of the source. Cut-off read from the data, not from the text of the source: active = max response mostly above about 13% (no sharp cut-off); inactive = mostly below about 14%.

test: Cycloheximide Counterscreen for Small Molecule Inhibitors of Shiga Toxin; settings: cell reporter, cycloheximide protein synthesis inhibition counterscreen; stronger effect = higher value; note: read at 38.3 µM for the half of the compounds with a filed dose; 0% is about no effect

Compound	max response
O=C(NCC1(N2CCOCC2)CCCCC1)c1cc2ccccc2o1	inactive: -5.02%
Cc1cc(C)cc(N(C(=O)c2ccccc2)C2CCN(C(=O)OC(C)(C)C)CC2)c1	inactive: -3.15%
CCOC(=O)N1CCC(Nc2ccc(OC)cc2)CC1	inactive: 2.71%
N#CC1(Nc2ccccc2)CCN(Cc2ccccc2)CC1	inactive: 0.505%
O=C(OC1CN2CCC1CC2)C1c2ccccc2Oc2ccccc21 (centres undefined)	inactive: -2.1%
O=C(NCC1(N2CCCCC2)CCCCC1)c1ccc(=O)[nH]c1	inactive: 1.48%
COc1ccc(C(=O)NCC2(N3CCCCC3)CCCCC2)cc1	inactive: 2.39%
CC(C)(C)OC(=O)N1CCC(N(C(=O)c2ccccc2)c2ccc(F)cc2)CC1	inactive: -5.81%
COc1ccc(C(=O)NCC2(N3CCCCC3)CCCCC2)c(OC)c1OC	inactive: -1.95%
CSc1ccccc1C(=O)NCC1(N2CCCCC2)CCCCC1	inactive: 8.04%
CCOC(=O)N1CCC(Nc2cccc(C)c2)CC1	inactive: -0.993%
COc1cc(C(=O)NCC2(N(C)C)CCCCC2)ccc1OC(F)F	inactive: 0.256%
Cc1ccc(OCC(C)C)c(CN(CCCl)CCCl)c1	inactive: 0.778%
CCOc1ccc(C)cc1CN(CCCl)CCCl	inactive: 11.3%
O=C(NCC1(N2CCCCC2)CCCCC1)c1ccc(F)cc1	inactive: -1.62%
CCOC(=O)N1CCC(Nc2ccc(F)cc2)CC1	inactive: 0.35%
COc1ccc(NC2CCN(CCc3ccccc3)CC2)c(OC)c1	inactive: -4.56%
O=C(NCC1(N2CCCCC2)CCCCC1)c1cccc(C(F)(F)F)c1	inactive: -0.944%
O=[N+]([O-])c1cc([N+](=O)[O-])c(NCC2CCS(=O)(=O)C2)c([N+](=O)[O-])c1 (centres undefined)	inactive: 5.69%
COc1ccc(NC2CCN(C(=O)OC(C)(C)C)CC2)cc1	inactive: 8.8%

Compound	max response
CN1CCN(CCOC(=O)C(O)(c2ccccc2)c2ccccc2)CC1	inactive: -3.22%
O=C(NCC1(N2CCOCC2)CCCCC1)c1cc(=O)[nH]c2ccccc12	inactive: 0.981%
COc1cc(C(=O)NCC2(N3CCCCC3)CCCCC2)ccc1OC(F)F	inactive: -5.15%
O=C(NCC1(N2CCCCC2)CCCCC1)c1ccc(OC(F)F)cc1	inactive: -2.82%
O=C(NCC1(N2CCCCC2)CCCCC1)c1cccc([N+](=O)[O-])c1	inactive: -9.65%
CCN1CCC(Nc2ccc(Cl)cc2)CC1	inactive: -1.63%
N#CC1(Nc2ccccc2)CCN(CCc2ccccc2)CC1	inactive: -4.41%
COc1ccc2c(c1O)-c1c(O)c(OC)cc3c1[C@H](C2)[N+](C)(C)CC3.O=[N+]([O-])c1cc([N+](=O)[O-])c([O-])c([N+](=O)[O-])c1[O-]	inactive: -5.06%
O=C(OC1CN2CCC1CC2)c1ccc([N+](=O)[O-])cc1 (centres undefined)	inactive: -2.34%
CCCOc1ccc(C(=O)NCC2(N(C)C)CCCCC2)cc1OC	inactive: -5.24%
COc1ccc(CN(CCCl)CCCl)cc1Cl	inactive: 8.71%
CN(C)c1cccc(C(=O)NCC2(N3CCCCC3)CCCCC2)c1	inactive: -4.27%
O=[N+]([O-])c1cc([N+](=O)[O-])c(OC2CCCCC2O)c([N+](=O)[O-])c1 (centres undefined)	inactive: 0.771%
COc1cc(OC)c(C(=O)NCC2(N(C)C)CCCCC2)cc1OC	inactive: 1.18%
N/C(=N\O)c1c(N)no[n+]1[O-]	inactive: -10.2%
CCOC(=O)N1CCC(Nc2ccc(C)cc2)CC1	inactive: 1.29%
O=C(OC1CN2CCC1CC2)C1c2ccccc2C=Cc2ccccc21 (centres undefined)	inactive: -3.85%
O=C(O)c1cccc(Nc2c([N+](=O)[O-])cc([N+](=O)[O-])cc2[N+](=O)[O-])c1	inactive: -5.55%
COc1ccc(C(=O)NCC2(N3CCOCC3)CCCCC2)cc1OC	inactive: -6.41%
c1ccc(CN2CCC(Nc3ccccc3)CC2)cc1	inactive: -0.713%

Compound	max response
CCCN1CCC(Nc2cc(OC)cc(OC)c2)CC1	inactive: -1.21%
CN(C)C1(CNC(=O)c2cccc(C#N)c2)CCCCC1	inactive: 1.34%
CC(C)(C)OC(=O)N1CCC(N(C(=O)c2ccccc2)c2ccc(Cl)cc2)CC1	inactive: -3.3%
N#Cc1ccc(C(=O)NCC2(N3CCCCC3)CCCCC2)cc1	inactive: 0.691%
CCOC(=O)C(CC)C1=NC(C)(C)Cc2ccccc21.O=[N+]([O-])c1cc([N+](=O)[O-])c(O)c([N+](=O)[O-])c1 (centres undefined)	inactive: -2.74%
CCN1CCC(Nc2cccc(F)c2)CC1	inactive: -5.83%
CN(C)c1ccc(C(=O)NCC2(N3CCCCC3)CCCCC2)cc1	inactive: -1.76%
COc1cc(OC)cc(C(=O)NCC2(N3CCCCC3)CCCCC2)c1	inactive: -5.72%
Fc1ccccc1NC1CCN(Cc2ccccc2)CC1	inactive: -5.81%
CCC(CO)(C(=O)OC1CN2CCC1CC2)c1ccccc1 (centres undefined)	inactive: 1.52%
COc1cccc(C(=O)N(c2cc(C)cc(C)c2)C2CCN(C(=O)OC(C)(C)C)CC2)c1	inactive: -2.37%
COc1cc(OC)cc(C(=O)NCC2(N3CCOCC3)CCCCC2)c1	inactive: -1.86%
CCCOc1ccc(C)cc1CN(CCCl)CCCl	inactive: 11.6%
CN1CCC(Nc2ccc(Cl)cc2)CC1	inactive: -1.15%
CCOc1ncccc1C(=O)NCC1(N2CCOCC2)CCCCC1	inactive: 9.55%
CN1CCC(Nc2ccc(F)c(Cl)c2)CC1	inactive: -2.58%
CCCOc1ccc(C(=O)NCC2(N(C)C)CCCCC2)cc1	inactive: -0.471%
CC(C)(C)OC(=O)N1CCC(Nc2ccccc2)CC1	inactive: -1.72%
O=C(O)C1(Nc2ccccc2)CCN(Cc2ccccc2)CC1	inactive: 0.984%
